PubChem BioAssay AID504761, Drosophila RNAi Screening Center | 2011

- Aim: 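Insect host genes that dengue virus relies on to spread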 (primary screen)
- Cells: D.Mel-2 cells from Drosophila
- Reagent: long dsRNA against Drosophila genes
- Challenge: infection with dengue virus type 2; dose and infection time not stated
- Read-out: 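Cells stained for dengue envelope protein and imaged; percent of infected cells per well on duplicate plates, ranked by infection, with stained nuclei counted for cell number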
- Direction: infection score: higher = more virus-infected cells; cell count: higher = more cells in the well
- Call rule: 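Very low infection ranking in both replicate wells (chance probability at most 0.065), then a retest showing infection dropped 1.5-fold or more at p below 0.05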
- Meaning of the calls: active = confirmed: knock-down lowers infection; inactive = not picked or not confirmed
The screen tested about 22,000 reagents; this is an unselected part of those with a known target gene and a result. Over the whole deposit, 116 (0.52%) got an active call. 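Calls depend on retest data that are not deposited; infection was ranked per plate without normalising between plates; the unit of the infection score is not given.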 Raw values vary from plate to plate and are shown uncorrected. The numbers tell different reagents against one gene apart. A plus sign joins genes that one reagent is predicted to hit. Not all columns of the deposit are shown. Not given: the amount of reagent, the time to read-out.

kraken #1 — infection score, replicate 1 = 2.7; cell count, replicate 1 = 6820; outcome = inactive
kraken #2 — infection score, replicate 1 = 10.5; cell count, replicate 1 = 6609; outcome = inactive
RacGAP84C — infection score, replicate 1 = 3.67; cell count, replicate 1 = 6591; outcome = inactive
Gyc76C + CG42637 — infection score, replicate 1 = 6.77; cell count, replicate 1 = 2009; outcome = inactive

Not a retest: entries from further up.
RacGAP84C — infection score, replicate 1 = 3.67; cell count, replicate 1 = 6591; outcome = inactive
Gyc76C + CG42637 — infection score, replicate 1 = 6.77; cell count, replicate 1 = 2009; outcome = inactive

Additional records:
CG16986 — infection score, replicate 1 = 2.38; cell count, replicate 1 = 6103; outcome = inactive
rec #1 — infection score, replicate 1 = 1.15; cell count, replicate 1 = 6604; outcome = inactive
rec #2 — infection score, replicate 1 = 1.01; cell count, replicate 1 = 6143; outcome = inactive
CG9815 #1 — infection score, replicate 1 = 17.5; cell count, replicate 1 = 3700; outcome = inactive
CG9815 #2 — infection score, replicate 1 = 5.39; cell count, replicate 1 = 6480; outcome = inactive
CG6766 — infection score, replicate 1 = 15.6; cell count, replicate 1 = 5710; outcome = inactive
Cpr65Ax2 + Cpr65Ax1 #1 — infection score, replicate 1 = 1.55; cell count, replicate 1 = 6014; outcome = inactive
Cpr65Ax2 + Cpr65Ax1 #2 — infection score, replicate 1 = 0.52; cell count, replicate 1 = 6360; outcome = inactive
